Anti-infective test results gathered from many reports (values: NIAID ChemDB through PubChem).

All rows: tests in culture; organism: Cryptosporidium parvum; read-out: inhibition

Blank or dashed fields: not listed here.

structure | strain | cells | read by | dose | result
COc1ccc(/C=C\C=C\c2cc(OC)cc(=O)o2)cc1 | - | - | - | 25 µM | 11%
CC(=O)Oc1ccccc1C(=O)Nc1ncc([N+](=O)[O-])s1 | - | MDBK | cell count | 10 µg/mL | 93%
O=C1c2cn[nH]c2C(=O)c2c(O)ccc(O)c21 | - | - | - | 100 µM | 100%
COc1cc(/C=C/C=C\c2ccccc2OC)oc(=O)c1 | - | - | - | 10 µM | 6%
O=[N+]([O-])c1ccc(CSc2c3ccccc3nc3cc(Cl)ccc23)cc1 | - | - | - | 50 µg/mL | 32%
COc1cc(/C=C2\Oc3cc(O)cc(O[C@@H]4O[C@H](CO)[C@@H](O)[C@H](O)[C@H]4O)c3C2=O)cc(OC)c1O | - | - | - | 10 µM | 0%
NC[C@@H]1O[C@H](O[C@H]2[C@@H](O)[C@H](O[C@@H]3[C@@H](O)[C@H](N)C[C@H](N)[C@H]3O[C@H]3O[C@H](CO)[C@@H](O)[C@H](O)[C@H]3N)O[C@@H]2CO)[C@H](N)[C@@H](O)[C@@H]1O | IOWA | MDCK | luminescence | 50 µg/mL | 5.8%
CCSc1c2ccccc2nc2ccccc12 | - | - | - | 10 µg/mL | 28%
Cc1cccc2c1C(=O)c1cnn(C)c1C2=O | - | - | - | 10 µM | <10%
COc1ccc(/C=C2\Oc3cc(O)ccc3C2=O)cc1OC | - | - | - | 10 µM | 53%
CCN(CC)CCSc1c2ccccc2nc2ccccc12 | - | - | - | 50 µg/mL | 15%
CO[C@H]1/C=C/O[C@@]2(C)Oc3c(C)c(O)c4c(O)c(c5c(c4c3C2=O)NC2(CCN(CC(C)C)CC2)N=5)=NC(=O)/C(C)=C\C=C\[C@H](C)[C@H](O)[C@@H](C)[C@@H](O)[C@@H](C)[C@H](OC(C)=O)[C@@H]1C | - | A549 | - | 8 µg/mL | 22.9%
O=C(c1ccccc1)c1oc2cc(O)cc(O)c2c1O | - | - | - | 50 µM | 10%
Cc1cc(O)c2c(c1Cl)C(=O)c1cn[nH]c1C2=O | - | - | - | 100 µM | <10%
CSc1c2ccccc2nc2ccccc12 | - | - | - | 10 µg/mL | 20%
O=C(c1ccccc1)c1oc2cc(O)cc(Cc3ccccc3)c2c1O | - | - | - | 25 µM | 4%
Cc1[nH]nc2c1C(=O)c1c(O)ccc(O)c1C2=O | - | - | - | 25 µM | <10%
CC[C@@H](C(=O)[C@@H](C)[C@@H](O)[C@H](C)CCc1ccc(C)c(O)c1C(=O)O)[C@H]1O[C@](CC)([C@H]2CC[C@](O)(CC)[C@H](C)O2)C[C@@H]1C | - | A549 | - | 2 µg/mL | 70%

Repeating the final 2 entries:

Cc1[nH]nc2c1C(=O)c1c(O)ccc(O)c1C2=O ; dose: 25 µM ; result: <10%
CC[C@@H](C(=O)[C@@H](C)[C@@H](O)[C@H](C)CCc1ccc(C)c(O)c1C(=O)O)[C@H]1O[C@](CC)([C@H]2CC[C@](O)(CC)[C@H](C)O2)C[C@@H]1C ; cells: A549 ; dose: 2 µg/mL ; result: 70%

Conditions beyond the fields shown may differ between rows. Percent inhibition refers to the dose given; in toxicity tests it is the harm to the cells.